# Results of single-concentration screens

Measurements from “University of Dundee, Small-Polar-MMV Screening Library” (2021), ChEMBL document CHEMBL3988442.

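Whole-cell growth test on Mycobacterium tuberculosis, read after 3 days in glucose-containing 7H9 medium; the read-out is not stated. Compounds at 50 µM. Direction is inferred from retests: higher values go with more growth inhibition. Of about 69,000 compounds tested this way, about 760 (1.1%) reached 50% or more in at least one test.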

Results are given as percent effect.
How 0% and 100% were set is not recorded. Most values in the screen are low, and negative values occur.
Many other results are left out here, so strong results are more common than in the screen.
Two or more numbers in one place are separate tests of the same structure; such repeats can differ widely.

{"compound": "Cn1cc(-c2cc(C(=O)N3CCOCC3)c3ccc(F)cc3n2)cn1", "effect": -27.15}
{"compound": "COC1CCN(C(=O)Cn2ccc3ccccc32)CC1", "effect": "-18.84 & -6.288"}
{"compound": "Cc1cccc(CS(=O)(=O)NCC(O)Cc2ccccc2)c1", "stereo": "stereo not drawn", "effect": "13.95 & 6.852"}
{"compound": "CC(C(=O)NCCOc1ccccc1)n1cncn1", "stereo": "stereo not drawn", "effect": -20.33}
{"compound": "c1cncc(OC2CCN(CCn3cc4ccccc4n3)CC2)c1", "effect": 11.24}
{"compound": "CCN(C)S(=O)(=O)NCC(O)c1c(Cl)cccc1Cl", "stereo": "stereo not drawn", "effect": "-9.97 & -3.503"}
{"compound": "O=C(Nc1nc[nH]n1)c1cc(-c2ccc(F)cc2)n[nH]1", "effect": -12.94}
{"compound": "Cc1cc(C2CCC2)nc(N2CCC3(CCCNC3=O)C2)n1", "stereo": "stereo not drawn", "effect": 3.621}
{"compound": "Cc1nnc(SCCC(=O)N(C)Cc2ccc(Cl)s2)[nH]1", "effect": 40.91}
{"compound": "O=C(Cn1c(=O)oc2ccccc21)NCC1(O)CCc2ccccc21", "stereo": "stereo not drawn", "effect": -1.272}
{"compound": "NC(=O)CN1CCOCC(Cc2ccccc2)C1", "stereo": "stereo not drawn", "effect": -4.841}
{"compound": "CCC(C)(C)NC(=O)c1nnn(-c2cccc3c2CCN(C)C3)c1C", "effect": 9.658}
{"compound": "O=C(c1csnn1)N1CCc2ccccc21", "effect": "7.663 & -4.704"}
{"compound": "CCc1nc(CN(C)C2CCN(CC(=O)N3CCOCC3)C2)no1", "stereo": "stereo not drawn", "effect": -27.48}
{"compound": "CCc1ccccc1OC1CN(C(=O)c2sccc2N)C1", "effect": 13.57}
{"compound": "CCOc1cc(C(=O)n2cc(C)cn2)cc(OCC)c1OCC", "effect": "53.32 & 7.731"}
{"compound": "CC(NC(=O)CNc1cc2c(cc1Cl)OCCO2)c1ccco1", "stereo": "stereo not drawn", "effect": 11.59}
{"compound": "CCc1[nH]c2c(CNc3cnccn3)cc(F)cc2c1C", "effect": 42.46}
{"compound": "COc1cc(C(=O)N2CCC(Nc3cccnc3)CC2)ccc1C", "effect": 5.698}
{"compound": "N#Cc1ccc(NCCNc2ccc(C(F)(F)F)cn2)nc1", "effect": 25.69}
{"compound": "CNc1nc2c(s1)C(c1ccc(Cl)cc1Cl)CC(=O)N2", "stereo": "stereo not drawn", "effect": 52.85}
{"compound": "CNS(=O)(=O)c1ccc(CNC(=O)C2CCCO2)cc1", "stereo": "stereo not drawn", "effect": -8.709}
{"compound": "CCN1CCN(C[C@@H]2CN(c3ncc(Cl)cc3F)C[C@@H]2CO)CC1", "effect": 36.14}
{"compound": "Cc1nc(N2CCN(S(C)(=O)=O)CC2)cc(-n2cnc(C)c2C)n1", "effect": 19.76}
{"compound": "Cc1cnc(N2C(=O)CSC2c2ccc(F)cc2)s1", "stereo": "stereo not drawn", "effect": "54.6 & 19.86"}
{"compound": "CCc1cnc(N)nc1NC(C)c1cnn(C)c1", "stereo": "stereo not drawn", "effect": -15.85}
{"compound": "CCOc1ccc(NC2CCN(CC(F)(F)F)C2=O)cc1C", "stereo": "stereo not drawn", "effect": "4.391 & 8.95"}
{"compound": "CCCc1nc(C)cc(N2CCC3(CCC(=O)N(CCO)C3)CC2)n1", "effect": "91.38 & -14.37"}
{"compound": "COC(=O)COn1c(SC)nc2ccccc2c1=O", "effect": 45.96}
{"compound": "CSC1=Nc2c(cnn2-c2cccc(Cl)c2)C2=NCCCN12", "effect": 39.95}
{"compound": "O=C(NCC1CCCO1)N1CCN(Cc2ccc3c(c2)CCO3)CC1", "stereo": "stereo not drawn", "effect": 5.052}
{"compound": "COc1cccc(NC(=O)c2nc3ccccc3n(C)c2=O)c1", "effect": 53.92}
{"compound": "CC(O)CCN(C)S(=O)(=O)Cc1ccc(Cl)c(Cl)c1", "stereo": "stereo not drawn", "effect": "9.99 & 34.95"}
{"compound": "Cc1nn(C)c(C)c1C1CCCN1Cc1cccc(C(N)=O)c1", "stereo": "stereo not drawn", "effect": 10.53}
{"compound": "NC(=O)CN1CCC(C(=O)NCc2ccc3c(c2)OCCCO3)CC1", "effect": -6.51}
{"compound": "CC(C)c1cc(=O)[nH]c(C(C)(C)N)n1.Cl", "effect": -12.28}
{"compound": "C=C(C)CNCC1(O)CCCN(Cc2ccc(F)c(F)c2)C1=O", "stereo": "stereo not drawn", "effect": 14.66}
{"compound": "O=C(CCn1cccn1)N1CCSCC1", "effect": -20.83}
{"compound": "CCN(C)S(=O)(=O)NCC1(c2cccc(Br)c2)CC1", "effect": 21.12}
{"compound": "Cc1cc(NCCNc2cccnc2)nc(-c2ccccc2O)n1", "effect": 44.59}
{"compound": "Fc1cccc(Cl)c1CNCCOc1ccccn1", "effect": "0.8919 & 97.69"}
{"compound": "COc1ccc2nnc(C(=O)NCC3CCCC3)nc2c1", "effect": "50.58 & 35.08"}
{"compound": "CC(NC(=O)NCc1cc(Br)cs1)c1ccccn1", "stereo": "stereo not drawn", "effect": -1.176}
{"compound": "COc1ccccc1CNCc1nn(-c2ccccc2)c2c1CCC2", "effect": 53.06}
{"compound": "O=S(=O)(NCC1CCOC1)N1CCc2ccccc2C1", "stereo": "stereo not drawn", "effect": -11.13}
{"compound": "CN1CCCN(C(=O)c2cnsn2)c2cc(Cl)ccc21", "effect": 12.14}
{"compound": "O=C(c1cccnc1)N1Cc2[nH]nc(COCCO)c2C1", "effect": "0.4828 & -1.037"}
{"compound": "Cc1n[nH]c(SCC(=O)NC(c2ccncc2)C(C)C)n1", "stereo": "stereo not drawn", "effect": 11.88}
{"compound": "CC(C)(C)c1n[nH]cc1CN1CCc2nc3ccsc3c(=O)n2CC1", "effect": -29.81}
{"compound": "Cc1nnc2n1CCN(C(C)c1nnc(-c3cccs3)o1)C2", "stereo": "stereo not drawn", "effect": 9.521}

3 of the entries, repeated:

compound,effect
CCc1nc(CN(C)C2CCN(CC(=O)N3CCOCC3)C2)no1 (stereo not drawn),-27.48%
CCOc1ccc(NC2CCN(CC(F)(F)F)C2=O)cc1C (stereo not drawn),4.391% & 8.95%
Cc1cc(NCCNc2cccnc2)nc(-c2ccccc2O)n1,44.59%